# According to PubChem BioAssay AID485341 (National Center for Advancing Translational Sciences (NCATS), 2010):
# The chains behind the UniProt entries cited, without tags or fusion partners.
# UniProt P00811, whole entry: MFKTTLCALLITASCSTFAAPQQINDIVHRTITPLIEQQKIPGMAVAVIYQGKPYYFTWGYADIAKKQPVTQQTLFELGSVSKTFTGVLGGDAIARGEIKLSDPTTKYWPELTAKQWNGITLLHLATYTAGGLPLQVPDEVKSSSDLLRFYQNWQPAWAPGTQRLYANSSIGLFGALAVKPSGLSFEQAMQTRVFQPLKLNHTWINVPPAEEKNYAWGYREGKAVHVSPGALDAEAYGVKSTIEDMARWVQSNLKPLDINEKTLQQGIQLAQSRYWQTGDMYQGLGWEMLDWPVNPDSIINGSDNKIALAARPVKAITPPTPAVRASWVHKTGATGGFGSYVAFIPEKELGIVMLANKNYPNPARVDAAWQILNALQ
# The entries are a selection whose mix differs from that of the whole data set. Activity calls are given as the source filed them. Calls follow the shape of the dose curve; as a rule, active = well fitted inhibition curve with a large enough effect; inconclusive = small, poorly fitted or top-dose-only effect; inactive = no such curve, though single readings can be large or run the other way. Entries that show only a call come without a potency.
# Target: Beta-lactamase (Escherichia coli (strain K12)) (UniProt P00811)
# Test: qHTS Inhibitors of AmpC Beta-Lactamase (assay without detergent); also: nearly all actives have a fitted effect of over 20% in size
# Conditions: AmpC nitrocefin hydrolysis, absorbance 480 nm, 0.0001% Triton; series mostly up to 57.1 µM
# Protocol: NIH Molecular Libraries Probe Production Network [MLPCN] NIH Chemical Genomics Center [NCGC] Assay Provider: Professor Brian Shoichet, UCSF Assay Overview: This aggregation profiling approach exploits the sensitivity of aggregate formation to detergent. Inhibition of b-lactamase is measured in the presence and absence of 0.01% Triton X-100. This particular assay had the prescence of 0.01% Triton X-100. See Pubchem assay "Promiscuous and Specific Inhibitors of AmpC Beta-Lactamase (assay without detergent)" for related screen. Compounds that inhibit only in the absence of detergent are considered likely promiscuous aggregators. A screen of 1,030 compounds was performed in Brian Shoichet's lab in 96-well format. AmpC activity was measured by following the absorbance at 480 nm. Nitrocefin is a chromogenic substrate: while nitrocefin is yellow (lmax 390 nm), the product of its hydrolysis is red (lmax 486 nm, 17,000 M-1). AmpC beta lactamase was provided by Shoichet Lab, UCSF.
# Buffer: 20 mM phosphate buffer, pH 7.0 Triton X-100: No Detergent screen: 0.0001%, Detergent screen: 0.01%. Reagents/Controls: Buffer in columns 3 and 4 as negative control (no enzyme). 5.3 nM AmpC in columns 1, 2, 5-48. Titration of UCSF compound 9 control (from 10 mM, then 1:2) pin-transferred to column 2. Column 1 is neutral (100% activity). Assay Steps: Six uL of reagents were dispensed to 1536-well Greiner black clear bottom plates. Compounds and controls (23 nL) were transferred via Kalypsys PinTool. The plates were incubated for 15 min at room temperature, and then 2 uL of 800 uM solution of nitrocefin was added to start the reaction. The plates were immediately transferred to and read every 20 seconds for 4 min on ViewLux (Perkin-Elmer) High-throughput CCD imager using 480 nm absorbance protocol. During dispense, reagent bottles were kept submerged into 4 deg C water bath. Keywords: NIH Roadmap, MLSCN, MLI, MLSMR, qHTS, NCGC, AmpC Beta-Lactamase, Aggregation
# Potency is read from the fitted curve at half-maximal effect.
Structure (SMILES),"activity change, negative = inhibition",Potency
CC1=NCCc2c1[nH]c1ccccc21.O=[N+]([O-])c1cc([N+](=O)[O-])c(O)c([N+](=O)[O-])c1,inactive,
CCOC(=O)c1ccc(NP(C)(=O)Oc2cc(C)cc(C)c2)cc1 (centres undefined),inactive,
Cc1cc(C)cc(OP(C)(=O)Nc2ccc(C)cc2C)c1 (centres undefined),inactive,
COc1ccccc1OP(C)(=O)Nc1cccc(Br)c1 (centres undefined),inactive,
Cc1ccc(C)c(NP(C)(=O)Oc2ccccc2)c1 (centres undefined),inactive,
Cc1cc(C)cc(OP(C)(=O)Nc2ccccn2)c1 (centres undefined),inactive,
CP(=O)(Nc1cccc(Br)c1)Oc1ccccc1 (centres undefined),inactive,
O=[N+]([O-])c1cc([N+](=O)[O-])c(-n2nnc3ccccc32)c([N+](=O)[O-])c1,inactive: -11.2% [at 11.4 µM],
Cc1nc2ccc3ccccc3c2s1.O=[N+]([O-])c1cc([N+](=O)[O-])c(O)c([N+](=O)[O-])c1,inactive,
CC1=C2N=C(C=C3N=C(C(C)=C4[N-][C@@](C)([C@@H]5N=C1[C@](C)(CCC(=O)NC[C@@H](C)OP(=O)([O-])O[C@H]1[C@@H](O)[C@@H](n6cnc7cc(C)c(C)cc76)O[C@@H]1CO)[C@H]5CC(N)=O)[C@@](C)(CC(N)=O)[C@@H]4CCC(N)=O)[C@@](C)(CC(N)=O)[C@@H]3CCC(N)=O)C(C)(C)[C@@H]2CCC(N)=O.[C-]#N.[Co+3],inactive,
O=[N+]([O-])c1cc([N+](=O)[O-])c(Nc2nnnn2CCO)c([N+](=O)[O-])c1,inactive,
CCCOc1ccc(NP(C)(=O)Oc2ccc(Cl)cc2)cc1 (centres undefined),inactive: -10.4% [at 11.4 µM],
CP(=O)(Nc1ccc(SC(F)(F)F)cc1)Oc1ccccc1 (centres undefined),inactive,
COc1ccccc1OP(C)(=O)Nc1c(C)cccc1C (centres undefined),inactive,
CN1CCCCC1COC(=O)C1(O)c2ccccc2CCc2ccccc21 (centres undefined),inactive,
CP(=O)(Nc1ccccc1Br)Oc1ccccc1 (centres undefined),inactive,
COc1ccccc1OP(C)(=O)Nc1ccccc1 (centres undefined),inactive,
CP(=S)(Nn1cnnc1)Oc1ccccc1 (centres undefined),inactive,
CP(=O)(NC(=O)Nc1ccccc1)Oc1ccccc1 (centres undefined),inactive,
CCc1ccc(OP(C)(=O)N2CCN(c3ccc([N+](=O)[O-])cc3)CC2)cc1 (centres undefined),inactive,
Cc1cc(C)cc(OP(C)(=O)Nc2ccc(SC(F)(F)F)cc2)c1 (centres undefined),inactive,
Cc1cccc(C)c1OP(C)(=O)Nc1ccc(SC(F)(F)F)cc1 (centres undefined),inactive,
CP(=O)(Nc1ccc(SC(F)(F)F)cc1)Oc1ccc(Cl)cc1 (centres undefined),inactive,
CP(=O)(Oc1ccccc1)OC(c1ccccc1)C(F)(F)F (centres undefined),inactive,
CCOC(=O)c1ccc(NP(C)(=O)Oc2ccc(OC)cc2)cc1 (centres undefined),inactive,
CCOP(C)(=S)SCC(=O)NC(C)C(=O)O (centres undefined),inactive,
CCN(CC)CCCOC(=O)C(O)(c1ccccc1)c1ccccc1,inactive,

Structure (SMILES),"activity change, negative = inhibition",Potency
O=[N+]([O-])c1ccc2c(c1)C=Nc1ccccc1O2,inactive,
CC(C)(C)c1ccc(OP(C)(=O)Nc2ccc(SC(F)(F)F)cc2)cc1 (centres undefined),inactive,
Cc1cccc(C)c1OP(C)(N)=O (centres undefined),inactive,
O=[N+]([O-])c1cc([N+](=O)[O-])c(Nc2cccnc2)c([N+](=O)[O-])c1,inactive,
Cc1cc(C)cc(OP(C)(N)=O)c1 (centres undefined),inactive,
COc1ccccc1OP(C)(=O)Nc1cc(Cl)ccc1C (centres undefined),inactive,
COc1ccc(OP(C)(=O)Nc2cccc(F)c2)cc1 (centres undefined),inactive,
COc1ccccc1OP(C)(=O)Nc1ccc(C)cc1 (centres undefined),inactive,
Cc1ccc(NP(C)(=O)Oc2ccccc2)c(C)c1 (centres undefined),inactive,
CCOC(=O)c1ccc(NP(C)(=O)Oc2ccccc2)cc1 (centres undefined),inactive,
COc1ccccc1OP(C)(=O)Nc1ccc(C)c(C)c1 (centres undefined),inactive,
COc1ccc(OP(C)(=O)Nc2ccccc2Br)cc1 (centres undefined),inactive,
Cc1cc(C)cc(OP(C)(=O)Nc2cccc(C(F)(F)F)c2)c1 (centres undefined),inactive,
CP(=O)(Nc1ccc(Cl)cc1Cl)Oc1ccccc1 (centres undefined),inactive,
CP(=O)(OCCOc1ccccc1)OCCOc1ccccc1,inactive,
Cc1nc2ccc3ccccc3c2o1.O=[N+]([O-])c1cc([N+](=O)[O-])c(O)c([N+](=O)[O-])c1,inactive,
COc1ccc(OP(C)(=O)Nc2ccccn2)cc1 (centres undefined),inactive,
CN(C)CCOC(=O)C(O)(c1ccccc1)C1CCCC1 (centres undefined),inactive,
COc1ccccc1OP(C)(=O)Nc1ccc(Br)cc1 (centres undefined),inactive,
CP(=O)(Nc1ccccn1)Oc1ccccc1 (centres undefined),inactive,
COc1ccccc1OP(C)(=O)Nc1ccc(C)cc1C (centres undefined),inactive,
CCc1ccc(OP(C)(=O)O)cc1,inactive,
Cc1c(NP(C)(=O)Oc2ccc(C(C)C)cc2)c(=O)n(-c2ccccc2)n1C (centres undefined),inactive,
O=[N+]([O-])c1cc([N+](=O)[O-])c(Nc2ccccn2)c([N+](=O)[O-])c1,inactive,
COc1ccccc1OP(C)(=O)Nc1c(C)n(C)n(-c2ccccc2)c1=O (centres undefined),inactive,
O=C(OCCCN1CCCC1)C(O)(c1ccccc1)C1CCCCC1 (centres undefined),inactive,
CP(=O)(Oc1ccccc1)N1CCOC1=O (centres undefined),inactive,

Structure (SMILES),"activity change, negative = inhibition",Potency
CCc1ccc(OP(C)(=O)Nc2cccnc2)cc1 (centres undefined),inactive,
CCN(CC)CC(O)COC(=O)C(O)(c1ccccc1)C1CCCCC1 (centres undefined),inactive,
COc1ccc(OP(C)(=O)Nc2ccc(Br)cc2)cc1 (centres undefined),inactive,
CN(C)C(=O)c1c([N+](=O)[O-])cc([N+](=O)[O-])cc1[N+](=O)[O-],inactive,
COc1ccccc1OP(C)(=O)Nc1ccccc1Br (centres undefined),inactive,
CC(C)(C)c1ccc(OP(C)(=O)O)cc1,inactive,
CP(=O)(Nc1ccc(Cl)cc1)Oc1ccc(F)cc1 (centres undefined),inactive,
CCOC(=O)c1ccc(NP(C)(=O)Oc2ccc(Cl)cc2)cc1 (centres undefined),inactive,
CP(=O)(OC12CC3CC(CC(C3)C1)C2)OC12CC3CC(CC(C3)C1)C2,inactive,
CN(C)CCOC(=O)C(O)(c1ccccc1)C1CCCCC1 (centres undefined),,active: 0.158 µM
COc1ccc(NP(C)(=O)Oc2ccccc2OC)cc1 (centres undefined),inactive,
COc1ccc(OP(C)(=O)Nc2cccc(Br)c2)cc1 (centres undefined),inactive,
O=[N+]([O-])c1ccc(OP2(=O)COCCO2)cc1 (centres undefined),inactive,
Cc1cc(-c2cccc3ccccc23)c(C)cn1.O=[N+]([O-])c1cc([N+](=O)[O-])c(O)c([N+](=O)[O-])c1,inactive,
CP(=O)(Nc1ccc(SC(F)(F)F)cc1)Oc1ccc(F)cc1 (centres undefined),inactive,
Cc1ccccc1NP(C)(=O)Nc1ccccc1C,inactive,
CP(=O)(Nc1ccc2c(c1)OCCO2)Oc1ccccc1 (centres undefined),inactive,
CP(=O)(Nc1ccccc1F)Oc1ccccc1 (centres undefined),inactive,
CC(C)c1ccc(OP(C)(=O)Nc2ccc(SC(F)(F)F)cc2)cc1 (centres undefined),inactive,
O=C(OCCN1CCN(CCOCc2ccccc2)CC1)C(O)(c1ccccc1)c1ccccc1,inactive,
CCOC(=O)c1ccc(NP(C)(=O)Oc2ccc(F)cc2)cc1 (centres undefined),inactive,
COc1ccc(OP(C)(=O)Nc2ccc(SC(F)(F)F)cc2)cc1 (centres undefined),inactive,
CP(=O)(Nc1ccccc1)Oc1ccc(F)cc1 (centres undefined),inactive,
CCCCCOc1ccc(NP(C)(=O)Oc2ccc(Cl)cc2Cl)cc1 (centres undefined),inactive,
CCN(CC)CCCOC(=O)C(O)(c1ccccc1)C1CCCCC1 (centres undefined),inactive,
